Our source for the Potency values is PubChem BioAssay AID504834 (National Center for Advancing Translational Sciences (NCATS), 2011).

The entries are a selection whose mix differs from that of the whole data set. Records with an inconclusive call do not appear. Calls of active or inactive are those of the source. Calls come from the whole dose curve; as a rule, active = well fitted inhibition curve with a large enough effect; inconclusive = small, poorly fitted or top-dose-only effect, or another doubt; inactive = no such curve, though single readings can be large or run the other way.
Potency is the fitted concentration of half-maximal effect.

This test in a line: Primary qHTS for delayed death inhibitors of the malarial parasite plastid, 96 hour incubation. The settings on record: P. falciparum luciferase reporter growth. On the technique in general: Quantitative high-throughput screening tests each substance at several concentrations.
Turning to `O=C(NCC1(N2CCCCC2)CCCCC1)c1cncc(Br)c1`, the Potency was active: 2.08 µM.
The same measure for `O=C(NCC1(N2CCOCC2)CCCCC1)c1cc2ccccc2o1`: active: 11.7 µM; for `O=C(NCC1(N2CCCCC2)CCCCC1)c1ccc(Cl)s1`: active: 13.1 µM; for `CCCCOc1ccc(C(=O)NCC2(N3CCOCC3)CCCCC2)cc1`: active: 14.7 µM.
